Results of unrelated studies side by side (data: NIAID ChemDB).

All rows: growth or infection tests; species: Varicella zoster virus; cells: HEL; endpoint: EC50

ECn is the concentration giving n% inhibition of infection, replication or growth.

structure | strain | method | value
CCCCCCOc1ccc(-c2cc3cn([C@H]4C[C@H](O)[C@@H](CO)O4)c(=O)nc3o2)cc1 | YS | plaque count | 0.0014 µM
O=c1[nH]c(=O)n([C@@H]2O[C@H](CO)[C@@H](O)[C@@H]2O)cc1/C=C/Br | Oka BVaraU-resistant | cytopathic effect | >57 µM
CC1(C)[C@@H](CO)CC[C@@]1(C)Cn1cnc2c(=O)[nH]cnc21 | 07/1 (TK-) | cytopathic effect | >50 µg/mL
Nc1ccn(C[C@@H](CO)OCP(=O)(O)O)c(=O)n1 | OKA (WILD TYPE) | cytopathic effect | 0.21 µM
Cc1cc([C@H]2C[C@H](O)[C@@H](CO)O2)c(F)cc1F | TK+/YS | plaque count | >200 µM
CC1(C)[C@@H](CO)CC[C@@]1(C)Cn1nnc2c(=O)[nH]cnc21 | YS/R (TK-) | cytopathic effect | >50 µg/mL
CCCCCCc1cc2cn([C@H]3C[C@H](O)[C@@H](CO)O3)c(=O)nc2[nH]1 | YS/R (TK-) | plaque count | >50 µM
CCCCCCCOc1ccc(-c2cc3cn([C@H]4C[C@H](O)[C@@H](CO)O4)c(=O)nc3o2)cc1 | OKA | plaque count | 0.006 µM
Nc1nc2c(ncn2CCC(O)CO)c(=O)[nH]1 | 9/84 | cytopathic effect / ELISA | 87 µM
CC[C@@H](O)C1=C[C@@H](n2cnc3c(N)ncnc32)[C@H](O)[C@@H]1O | 07/1 YS/R (TK-) | cytopathic effect | >50 µg/mL
OC[C@H]1O[C@@H](c2cc(Br)c(F)cc2F)C[C@@H]1O | (TK-)/YS/R | plaque count | >200 µM
Nc1ncc2ncn(C[C@@H](CF)OCP(=O)(O)O)c2n1 | - | cytopathic effect | >100 µM
Nc1nc2c(ncn2C[C@H](CO)CCO)c(=O)[nH]1 | 9/84-C | cytopathic effect / ELISA | >100 µM
O=C(O)P(=O)(O)O | Clinical isolate VZV-30 | cytopathic effect | 93.8 µM
O=c1[nH]c(=O)n([C@H]2C[C@H](O)[C@@H](CO)O2)cc1-c1cc(Br)no1 | YS | plaque count | 0.24 µg/mL
O=c1[nH]c(=O)n([C@H]2C[C@H](O)[C@@H](CO)O2)cc1/C=C/Br | YS/R (TK-) | cytopathic effect | >150 µM
CCCCCCCCCCCCc1cc2cn([C@H]3C[C@H](O)[C@@H](CO)O3)c(=O)nc2[nH]1 | YS | plaque count | 14 µM
CCCCCCCC/C=C/CCCCCCCC(=O)OCC(CO)OCn1cnc2c(=O)[nH]c(N)nc21 | YS/R (TK-) | cytopathic effect | 38 µM
CC(=O)OCCOCN1c2nc(Cc3ccccc3)[nH]c2C(N)=NS1(=O)=O | YS | plaque count | >50 µg/mL
OC[C@H]1O[C@H](c2ccc(F)cc2F)C[C@@H]1O | TK+/YS | plaque count | >200 µM
CCCCCCCc1ccc(-c2cc3cn(C4CC[C@@H](CO)O4)c(=O)nc3o2)cc1 | YS (TK+) | plaque count | >5 µM
Nc1ncnc2c1ncn2C[C@@H](CF)OCP(=O)(O)O | - | cytopathic effect | 102 µM
Nc1nc2c(ncn2COC(CO)CO)c(=O)[nH]1 | Oka BVaraU-resistant | cytopathic effect | 6.7 µM
Cc1cc([C@@H]2C[C@H](O)[C@@H](CO)O2)c(F)cc1Cl | (TK-)07/1 | plaque count | >200 µM
O=c1ccn([C@@H]2C[C@H](CO)C[C@H]2CO)c(=O)[nH]1 | YS | - | >100 µg/mL
CCCCCCCCCCc1cc2cn([C@H]3C[C@H](O)[C@@H](CO)O3)c(=O)nc2n1CCC | YS/R (TK-) | plaque count | >5 µM
OC[C@H]1CC(n2cnc3c(NC4CC4)ncnc32)C[C@@H]1CO | YS/R (TK-) | - | >100 µg/mL
CCCCCCCCCCc1cc2cn([C@H]3C[C@H](O)[C@@H](CO)O3)c(=O)nc2n1CC | YS/R (TK-) | plaque count | >5 µM
Nc1ncnc2c1ncn2C[C@H](CF)OCP(=O)(O)O | - | cytopathic effect | >300 µM
Nc1nc2c(ncn2COC(CO)CO)c(=O)[nH]1 | 9/84-A | cytopathic effect / ELISA | 43 µM
Nc1nc2c(ncn2C[C@H](CF)OCP(=O)(O)O)c(=O)[nH]1 | - | cytopathic effect | 107 µM
CC1(C)[C@@H](CO)CC[C@@]1(C)Cn1cc(Br)c(=O)[nH]c1=O | YS/R (TK-) | cytopathic effect | >50 µg/mL
CC(C)C1NC(=O)N(C2CCCC2)C1=O | 07/1 (TK-) | plaque count | 90 µg/mL
CCCCCc1ccc(-c2cc3cn(C4CC[C@@H](CO)O4)c(=O)nc3o2)cc1 | 07/1 (TK-) | plaque count | >20 µM
C=C[C@@H](O)C1=C[C@@H](n2cnc3c(N)ncnc32)[C@H](O)[C@@H]1O | 07/1 YS/R (TK-) | cytopathic effect | >50 µg/mL
O=c1[nH]c(=O)n([C@@H]2C[C@H](CO)C[C@H]2CO)cc1I | OKA | - | >100 µg/mL
O=c1[nH]c(=O)n([C@H]2C[C@H](O)[C@@H](CO)O2)cc1/C=C/Br | (TK+)/OKA | plaque count | 0.009 µM
Nc1ncnc2c1ncn2[C@@H]1C[C@H](CO)[C@@H](O)[C@@H]1O | 9/84-A | cytopathic effect / ELISA | 35 µM
Nc1cc([C@H]2C[C@H](O)[C@@H](CO)O2)c(F)cc1F | (TK-)/YS/R | plaque count | >200 µM
Cc1cn(CCCC(O)CF)c(=O)[nH]c1=O | YS | cytopathic effect | >50 µg/mL
OC[C@H]1O[C@H](c2cc(F)c(F)cc2F)C[C@@H]1O | (TK+)/OKA | plaque count | >200 µM
Nc1nc2c(ncn2CCCC(O)CF)c(=O)[nH]1 | YS/R (TK-) | cytopathic effect | >50 µg/mL
CC1(C)[C@@H](CO)CC[C@@]1(C)Cn1cc(I)c(=O)[nH]c1=O | YS | cytopathic effect | >50 µg/mL
CCCCCCc1ccc(-c2cc3cn(C4CC[C@@H](CO)O4)c(=O)nc3o2)cc1 | YS (TK+) | plaque count | 5 µM
Nc1ncc2ncn(C[C@H](CF)OCP(=O)(O)O)c2n1 | - | cytopathic effect | >100 µM
CC(C)C[C@H](NC(=O)n1nnc2ccccc21)C(=O)NCC1CCCCC1 | (TK+)/OKA | plaque count | >16 µg/mL
C=C[C@H](O)C1=C[C@@H](n2cnc3c(N)ncnc32)[C@H](O)[C@@H]1O | 07/1 YS/R (TK-) | cytopathic effect | >50 µg/mL
Cc1cc([C@H]2C[C@H](O)[C@@H](CO)O2)c(F)cc1Cl | (TK-)/YS/R | plaque count | >200 µM
Nc1nc(N)c2ncn(C[C@@H](CF)OCP(=O)(O)O)c2n1 | - | cytopathic effect | >150 µM
CC(C)C[C@H](NC(=O)n1nnc2ccccc21)C(=O)NC1CCCCC1 | (TK+)/OKA | plaque count | >16 µg/mL
CCCCCOc1ccc(-c2cc3cn([C@H]4C[C@H](O)[C@@H](CO)O4)c(=O)nc3o2)cc1 | OKA | plaque count | 0.001 µM

3 of the rows above, restated:

{"structure": "Nc1ncnc2c1ncn2[C@@H]1C[C@H](CO)[C@@H](O)[C@@H]1O", "strain": "9/84-A", "method": "cytopathic effect / ELISA", "value": "35 µM"}
{"structure": "Nc1ncc2ncn(C[C@H](CF)OCP(=O)(O)O)c2n1", "method": "cytopathic effect", "value": ">100 µM"}
{"structure": "Cc1cc([C@H]2C[C@H](O)[C@@H](CO)O2)c(F)cc1F", "strain": "TK+/YS", "method": "plaque count", "value": ">200 µM"}

Neighbouring rows are from separate reports. An empty or dashed field is not shown.